{"source": "PubChem BioAssay AID1259414, Drosophila RNAi Screening Center | 2018", "screen": "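Host factors increasing or decreasing Wolbachia levels in cultured fly cells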 (primary screen)", "system": "Drosophila JW18 cells infected with Wolbachia", "reagent": "long dsRNA against Drosophila genes, 0.25 µg dsRNA per well of a 384-well plate", "duration": "5 days", "treatment": "cells persistently infected with Wolbachia before knock-down; no added drug", "detection": "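Imaged fluorescence in situ signal for Wolbachia 23S rRNA per DAPI-counted host cell, given as a robust z-score within each plate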", "direction": "Wolbachia per cell robust z: higher = more Wolbachia per host cell than the plate typical", "active means": "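Hit when robust z is 1.5 or more, or -1.5 or less, in at least two of three replicates; excludes dsRNAs with several or no targets, genes not expressed in JW18 and well A1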", "note": "The deposit covers about 24,000 reagents; below is a random part of those that have a named target and a result. Over the whole deposit, about 1,210 (5%) were called active. 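Inactive calls also include excluded dsRNAs with several or no targets, genes unexpressed in JW18, and well A1, regardless of score.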 Unmarked entries are inactive. A plus sign joins genes that one reagent is predicted to hit."}
{"gene knocked down": "Cenp-C", "dsRNA": "DRSC14371", "Wolbachia per cell robust z, rep 1": 1.55, "Wolbachia per cell robust z, rep 2": 0.796, "Wolbachia per cell robust z, rep 3": 2.86}
{"gene knocked down": "Cenp-C", "dsRNA": "DRSC29707", "Wolbachia per cell robust z, rep 1": -5.08, "Wolbachia per cell robust z, rep 2": 1.11, "Wolbachia per cell robust z, rep 3": -9.86}
{"gene knocked down": "r + CG13012", "dsRNA": "DRSC19531", "Wolbachia per cell robust z, rep 1": 1.04, "Wolbachia per cell robust z, rep 2": -2.58, "Wolbachia per cell robust z, rep 3": 0.459}
{"gene knocked down": "Cdc5 + Roc1b", "dsRNA": "DRSC08687", "Wolbachia per cell robust z, rep 1": 1.04, "Wolbachia per cell robust z, rep 2": 0.397, "Wolbachia per cell robust z, rep 3": 0.488}
{"gene knocked down": "phr + CG18853", "dsRNA": "DRSC27486", "Wolbachia per cell robust z, rep 1": 0.794, "Wolbachia per cell robust z, rep 2": -0.815, "Wolbachia per cell robust z, rep 3": -6.21}
{"gene knocked down": "COX7B", "dsRNA": "DRSC10895", "Wolbachia per cell robust z, rep 1": "-3.77 (active)", "Wolbachia per cell robust z, rep 2": -2.5, "Wolbachia per cell robust z, rep 3": -0.336}
{"gene knocked down": "CG10384", "dsRNA": "DRSC03933", "Wolbachia per cell robust z, rep 1": -0.874, "Wolbachia per cell robust z, rep 2": -3.2, "Wolbachia per cell robust z, rep 3": -0.95}
{"gene knocked down": "CG10384", "dsRNA": "DRSC28924", "Wolbachia per cell robust z, rep 1": -0.0154, "Wolbachia per cell robust z, rep 2": 0.812, "Wolbachia per cell robust z, rep 3": 0.183}
{"gene knocked down": "mRpL28", "dsRNA": "DRSC02724", "Wolbachia per cell robust z, rep 1": -0.303, "Wolbachia per cell robust z, rep 2": -0.666, "Wolbachia per cell robust z, rep 3": -2.69}
{"gene knocked down": "Tmx3", "dsRNA": "DRSC10471", "Wolbachia per cell robust z, rep 1": -0.0815, "Wolbachia per cell robust z, rep 2": -1.1, "Wolbachia per cell robust z, rep 3": -0.794}
{"gene knocked down": "WDY", "dsRNA": "DRSC21229", "Wolbachia per cell robust z, rep 1": 0.506, "Wolbachia per cell robust z, rep 2": -0.9, "Wolbachia per cell robust z, rep 3": 0.4}
{"gene knocked down": "WDY", "dsRNA": "DRSC38768", "Wolbachia per cell robust z, rep 1": 1.84, "Wolbachia per cell robust z, rep 2": 0.423, "Wolbachia per cell robust z, rep 3": 2.84}
{"gene knocked down": "WDY", "dsRNA": "DRSC38774", "Wolbachia per cell robust z, rep 1": 1.46, "Wolbachia per cell robust z, rep 2": -3.59, "Wolbachia per cell robust z, rep 3": -1.15}
{"gene knocked down": "WDY", "dsRNA": "DRSC38780", "Wolbachia per cell robust z, rep 1": -4, "Wolbachia per cell robust z, rep 2": -0.362, "Wolbachia per cell robust z, rep 3": -3.66}
{"gene knocked down": "Jhbp13", "dsRNA": "DRSC02913", "Wolbachia per cell robust z, rep 1": 1.22, "Wolbachia per cell robust z, rep 2": 0.346, "Wolbachia per cell robust z, rep 3": -4.82}
{"gene knocked down": "PIG-N", "dsRNA": "DRSC06837", "Wolbachia per cell robust z, rep 1": 0.104, "Wolbachia per cell robust z, rep 2": -0.996, "Wolbachia per cell robust z, rep 3": -0.563}
{"gene knocked down": "mRpL1", "dsRNA": "DRSC16251", "Wolbachia per cell robust z, rep 1": 0.799, "Wolbachia per cell robust z, rep 2": 1.29, "Wolbachia per cell robust z, rep 3": 0.231}
{"gene knocked down": "Hsp70Bc + Hsp70Bbb + Hsp70Bb + 3 more", "dsRNA": "DRSC15380", "Wolbachia per cell robust z, rep 1": 1.35, "Wolbachia per cell robust z, rep 2": 0.48, "Wolbachia per cell robust z, rep 3": 0.679}
{"gene knocked down": "Prp19", "dsRNA": "DRSC07434", "Wolbachia per cell robust z, rep 1": 1.12, "Wolbachia per cell robust z, rep 2": 0.342, "Wolbachia per cell robust z, rep 3": -1.27}
{"gene knocked down": "Prp19", "dsRNA": "DRSC23905", "Wolbachia per cell robust z, rep 1": 1.31, "Wolbachia per cell robust z, rep 2": 1.55, "Wolbachia per cell robust z, rep 3": 0.54}
{"gene knocked down": "CG34007", "dsRNA": "DRSC38908", "Wolbachia per cell robust z, rep 1": 0.0084, "Wolbachia per cell robust z, rep 2": -0.842, "Wolbachia per cell robust z, rep 3": -0.324}
{"gene knocked down": "WASp", "dsRNA": "DRSC15032", "Wolbachia per cell robust z, rep 1": -1.2, "Wolbachia per cell robust z, rep 2": 0.489, "Wolbachia per cell robust z, rep 3": -0.0924}
{"gene knocked down": "WASp", "dsRNA": "DRSC26170", "Wolbachia per cell robust z, rep 1": -1.93, "Wolbachia per cell robust z, rep 2": -0.799, "Wolbachia per cell robust z, rep 3": -1.35}
{"gene knocked down": "NHP2", "dsRNA": "DRSC11229", "Wolbachia per cell robust z, rep 1": 0.541, "Wolbachia per cell robust z, rep 2": 0.554, "Wolbachia per cell robust z, rep 3": 0.651}
{"gene knocked down": "NHP2", "dsRNA": "DRSC24264", "Wolbachia per cell robust z, rep 1": 0.26, "Wolbachia per cell robust z, rep 2": 0.34, "Wolbachia per cell robust z, rep 3": -0.16}
